Anti-infective test results gathered from many reports (values: NIAID ChemDB through PubChem).

Common to all: whole-cell or culture tests; species: Candida tropicalis

Neighbouring rows are from separate reports.

SMILES | strain or isolate | method | conditions | read-out | value
Oc1ccc(Cl)c2cccnc12 | ATCC 750 | - | 24 h | MIC | 6.2 µg/mL
C1=C(c2cc3ccccc3o2)C2CCN1CC2 | ATCC 13803 | broth dilution | - | EC50 | >16 µg/mL
C[C@@H]1[C@H](O)[C@@H](C)/C=C/C=C/CC/C=C/C=C/C=C/C=C/C(O[C@H]2O[C@H](C)[C@@H](O)[C@H](N)[C@@H]2O)CC2O[C@](O)(CC(O)C(O)CCC(O)CC(O)CC(O)CC(=O)O[C@H]1C)CC(O)C2C(=O)O | ATCC 40042 | broth dilution | - | MIC100 | 64 µg/mL
C[C@@H](c1ncncc1F)[C@](O)(Cn1cncn1)c1ccc(F)cc1F | 17 clinical isolates | broth dilution | - | MIC50 | ≤0.031 µg/mL
Oc1cc(O)c2c(c1)OC(c1ccc(O)c(O)c1)[C@@H](O)C2 | Clinical isolate 6 | broth dilution | - | MIC50 | >128 µg/mL
O=C(O)/C=C/c1ccccc1 | PYCC 3097 | broth dilution / turbidity | - | EC50 | 0.16 µM
O=[N+]([O-])c1ccc(C[Se]c2nnnn2C2CCCCC2)c([N+](=O)[O-])c1 | 156 | broth dilution | 24 h | EC80 | >500 µM
COc1cc(O)cc(/C=C/c2ccc(O)cc2)c1 | ATCC MYA-3404/T1 | broth dilution | - | MIC95 | >300 µg/mL
COc1ccc2cc(C3=CN4CCC3CC4)ccc2c1 | ATCC 13803 | broth dilution | - | EC50 | >16 µg/mL
C[C@H]1[C@H](O)[C@@H](C)/C=C/C=C/C=C/C=C/C=C/C=C/C=C/[C@H](O[C@@H]2O[C@H](C)[C@@H](O)[C@H](N)[C@@H]2O)C[C@@H]2O[C@](O)(C[C@@H](O)C[C@@H](O)CC[C@H](O)[C@@H](O)C[C@@H](O)CC(=O)O[C@H]1C)C[C@H](O)[C@H]2C(=O)O | 54 isolates | - | - | MIC90 | 2 µg/mL
O=[N+]([O-])c1cc(CSc2nnnn2C2CCCCC2)cc([N+](=O)[O-])c1 | 156 | broth dilution | 48 h | EC80 | >500 µM
Nc1nc(=O)n([C@H]2CS[C@@H](CO)O2)cc1F | 54 isolates | - | - | MIC50 | 0.25 µg/mL
Oc1cc(Cl)cc2cccnc12 | ATCC 750 | - | 48 h | MIC | 6.2 µg/mL
COC(=O)[C@]12CCC(C)(C)C=C1C1CCC3[C@@]4(C)CCC(=O)C(C)(C)C4CC[C@@]3(C)[C@]1(C)CC2 | ATCC 750 | broth dilution | - | MLC | 200 µg/mL
O=C(O)c1ccccc1 | PYCC 3097 | - | - | EC50 | 0.48 µM
CC(=O)N1CCN(c2ccc(OC[C@H]3CO[C@](Cn4ccnc4)(c4ccc(Cl)cc4Cl)O3)cc2)CC1 | 19 isolates | - | - | MIC90 | 8 µg/mL
Cc1ccc(C(C)C)c(O)c1 | PYCC 3097 | broth dilution / turbidity | - | EC50 | 0.52 µM
CC1(C)C=C2C3CCC4[C@@]5(C)CCC(O)C(C)(C)C5CC[C@@]4(C)[C@]3(C)CC[C@@]2(C(=O)O)CC1 | ATCC 750 | broth dilution | - | MLC | >200 µg/mL
O=[N+]([O-])c1cc(CSc2cccc[n+]2[O-])cc([N+](=O)[O-])c1 | 156 | broth dilution | 48 h | EC80 | >500 µM
Oc1cccc2cc(Cl)cnc12 | ATCC 750 | - | 48 h | MIC | 25 µg/mL
C=CC(C)(O)CCCC=C(C)C | - | - | - | MIC90 | 0.025–0.031 µg/mL
Clc1ccc(C(Cn2ccnc2)OCc2ccc(Sc3ccccc3)cc2)c(Cl)c1 | 19 isolates | - | - | MIC50 | 4 µg/mL
C[C@@H]1C=C2C3CCC4[C@@]5(C)CC[C@@H](O)C(C)(C)C5CC[C@@]4(C)[C@]3(C)CC[C@@]2(C(=O)O)CC1 | ATCC 750 | broth dilution | - | MLC | >200 µg/mL
C[C@@H]1[C@H](O)[C@@H](C)/C=C/C=C/CC/C=C/C=C/C=C/C=C/C(O[C@H]2O[C@H](C)[C@@H](O)[C@H](N)[C@@H]2O)CC2O[C@](O)(CC(O)C(O)CCC(O)CC(O)CC(O)CC(=O)O[C@H]1C)CC(O)C2C(=O)O | ATCC 13803 | broth dilution | - | MIC100 | >1024 µg/mL
C1=C(c2cc3ccccc3s2)C2CCN1CC2 | ATCC 13803 | broth dilution | - | EC50 | >16 µg/mL
COc1cc(C[C@H](C)[C@H](C)Cc2ccc(O)c(O)c2)ccc1O | CCC 131-1997 | broth dilution | - | MIC80 | 62.5 µg/mL
CC(C)OC(=O)c1ccc(C2=CN3CCC2CC3)cc1 | ATCC 13803 | broth dilution | - | EC50 | >16 µg/mL
Clc1ccc(COC(Cn2ccnc2)c2ccc(Cl)cc2Cl)cc1 | 19 isolates | - | - | MIC50 | 4 µg/mL
CC(C)(C)[Si](C)(C)Oc1ccc(C2=CN3CCC2CC3)cc1 | ATCC 13803 | broth dilution | - | EC50 | >16 µg/mL
CC(=O)N1CCN(c2ccc(OC[C@H]3CO[C@](Cn4ccnc4)(c4ccc(Cl)cc4Cl)O3)cc2)CC1 | 17 clinical isolates | broth dilution | - | MIC90 | ≤0.031 µg/mL
C[C@@H]1O[C@@H](Oc2c(-c3ccc(O)c(O)c3)oc3cc(O)cc(O)c3c2=O)[C@H](O)[C@H](O)[C@H]1O | ATCC 750 | broth dilution | - | MLC | >200 µg/mL
COc1cc(O)c2c(c1)C(=O)c1c(cc3c(c1O)-c1c(cc(C)c(C(=O)N[C@H](CO)C(=O)O)c1O)[C@H](O[C@@H]1O[C@H](C)[C@H](O)[C@H](O)[C@H]1O)[C@H]3O)C2=O | Kitasato 85-8 | - | - | MIC | 1.6 µg/mL

3 of the rows above, restated:

SMILES	strain or isolate	method	conditions	read-out	value
O=C(O)c1ccccc1	PYCC 3097	-	-	EC50	0.48 µM
Nc1nc(=O)n([C@H]2CS[C@@H](CO)O2)cc1F	54 isolates	-	-	MIC50	0.25 µg/mL
COc1cc(O)c2c(c1)C(=O)c1c(cc3c(c1O)-c1c(cc(C)c(C(=O)N[C@H](CO)C(=O)O)c1O)[C@H](O[C@@H]1O[C@H](C)[C@H](O)[C@H](O)[C@H]1O)[C@H]3O)C2=O	Kitasato 85-8	-	-	MIC	1.6 µg/mL

MIC50, MIC90 and the like: level of inhibition, or share of isolates inhibited. a–b is a range or a potency band. An empty or dashed field is not shown. ECn is the concentration giving n% inhibition of infection, replication or growth.